Earlier results in article PMC3739823, “Structural Guided Scaffold Phage Display Libraries as a Source of Bio-Therapeutics” (PLoS ONE, 2013).
pKd: −log10 of the molar value.

Protein sequences, listed by entry. Tags and fused reporters are not part of them. Residues count along the entry.
UniProt P06756, 31-1048, chain 1 of 2: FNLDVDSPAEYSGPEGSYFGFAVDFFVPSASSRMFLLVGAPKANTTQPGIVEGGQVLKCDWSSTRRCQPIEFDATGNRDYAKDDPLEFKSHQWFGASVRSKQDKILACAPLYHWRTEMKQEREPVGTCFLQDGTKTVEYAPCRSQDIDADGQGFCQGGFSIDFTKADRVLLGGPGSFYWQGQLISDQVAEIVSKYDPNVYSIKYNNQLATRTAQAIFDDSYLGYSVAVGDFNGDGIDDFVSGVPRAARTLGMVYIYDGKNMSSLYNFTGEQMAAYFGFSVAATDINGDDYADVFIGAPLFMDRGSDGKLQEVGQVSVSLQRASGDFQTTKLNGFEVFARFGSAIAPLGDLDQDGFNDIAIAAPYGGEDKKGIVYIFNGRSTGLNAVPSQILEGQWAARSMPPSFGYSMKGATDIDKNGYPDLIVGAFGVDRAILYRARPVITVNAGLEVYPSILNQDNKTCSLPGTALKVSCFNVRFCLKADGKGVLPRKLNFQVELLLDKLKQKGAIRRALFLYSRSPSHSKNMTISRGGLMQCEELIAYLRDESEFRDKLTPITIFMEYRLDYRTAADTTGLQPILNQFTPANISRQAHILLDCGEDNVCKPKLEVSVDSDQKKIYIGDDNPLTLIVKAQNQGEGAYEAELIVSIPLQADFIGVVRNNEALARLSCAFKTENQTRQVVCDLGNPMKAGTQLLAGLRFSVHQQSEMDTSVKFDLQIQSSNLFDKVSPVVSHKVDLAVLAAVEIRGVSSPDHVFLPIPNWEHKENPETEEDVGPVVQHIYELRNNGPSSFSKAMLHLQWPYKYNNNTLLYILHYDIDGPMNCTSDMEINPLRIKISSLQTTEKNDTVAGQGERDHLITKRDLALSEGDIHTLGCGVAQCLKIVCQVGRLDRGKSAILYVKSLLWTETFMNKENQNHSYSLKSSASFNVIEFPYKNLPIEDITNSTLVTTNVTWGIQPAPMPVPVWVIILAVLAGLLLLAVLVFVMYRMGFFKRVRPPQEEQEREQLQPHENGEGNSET

Biological target: integrin αvβ6 (Homo sapiens) (UniProt P06756)
Details: cited from earlier work

**Q.** With A20FMDV2 as the substance, how does the pKd read?
**A.** The pKd was 8.77.
